Patent US12427135B2 (priority 2019, dated 2025)
pKd: −log10 of the molar value. Where two headings read alike, the source gives them in different places.

Target: RTA (Ricinus communis (Castor bean), UniProt P02879)
Assay: biochemical
Assay type: binding

| Compound | pKd (read-out: KD) | pKd |
| --- | --- | --- |
| Cc1cc(C)c(-c2ccc(C(=O)O)s2)c(C)c1 [RU-NT-075] | 4.37 |  |
| O=C(O)c1cc2c(s1)-c1ccccc1CC2 [drawing 385] |  | 3.68 |
